Here are results for two molecules from publication PMC9757750 (Science Advances, 2022).

The target in the test is T1, GST-p115 (1 to 651), ND (human, UniProt O60763 1-651).
T1 construct: also called N-terminal ARM domain; globular head
T1 sequence (looked up): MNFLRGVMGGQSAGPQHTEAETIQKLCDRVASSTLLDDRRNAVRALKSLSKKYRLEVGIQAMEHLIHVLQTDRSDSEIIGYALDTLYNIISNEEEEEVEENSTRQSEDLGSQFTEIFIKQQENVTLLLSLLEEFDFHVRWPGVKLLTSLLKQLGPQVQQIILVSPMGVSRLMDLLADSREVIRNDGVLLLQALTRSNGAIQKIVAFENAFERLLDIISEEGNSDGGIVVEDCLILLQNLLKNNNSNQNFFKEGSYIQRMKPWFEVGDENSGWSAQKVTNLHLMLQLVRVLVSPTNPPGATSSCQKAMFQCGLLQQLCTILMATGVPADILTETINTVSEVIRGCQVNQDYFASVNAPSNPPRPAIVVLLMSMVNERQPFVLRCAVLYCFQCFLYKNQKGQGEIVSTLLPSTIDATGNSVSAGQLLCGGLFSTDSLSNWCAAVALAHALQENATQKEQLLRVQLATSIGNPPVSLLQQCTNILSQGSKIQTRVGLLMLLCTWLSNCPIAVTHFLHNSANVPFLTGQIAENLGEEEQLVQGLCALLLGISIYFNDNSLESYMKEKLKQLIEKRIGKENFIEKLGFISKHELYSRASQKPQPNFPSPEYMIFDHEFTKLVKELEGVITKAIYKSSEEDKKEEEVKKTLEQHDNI
The experiment in a line: pull-down.

B1: His-LegA15 ΔΝ2 (195 to 471) (domain or fragment)
chain: APTYQLMTDSVSHFAKSHPGNKNFQEIANAFQFSNEASAFKFSTPQRNPEAGNDLARRIQGGELTTIPVSCKGHAMGLSYVPDGPGSKSGYLVYTNRGLGAKSSEHGTHIFRIEDSSKITPEFINNMTSGHSNGASHDEIMSQIKAAAGNKEPIHHIKQKGQKNDNCTIANSKSNIEGILLCQKAREVGGFDKLTESDMDSVKKEYKEFTKHMRVEKVNELAKALKENPQDPDLNNLTKEYLKQHPNADPKLKQTLETALKQASESSMTLSQPGKTI
With B1, the binding result is “binds”.

B2: His-LegA15 ΔΝ1 (95 to 471) (domain or fragment)
chain: DSAQSALIQATNSEGQSPLQYALQKQDFSTAKYFLDNGAKAGPIEKAVFEIALDSKAAKEFGFPPLPPEKEKLHPVKNFGLVLGIKTTSVDGTPSQFGHIAPTYQLMTDSVSHFAKSHPGNKNFQEIANAFQFSNEASAFKFSTPQRNPEAGNDLARRIQGGELTTIPVSCKGHAMGLSYVPDGPGSKSGYLVYTNRGLGAKSSEHGTHIFRIEDSSKITPEFINNMTSGHSNGASHDEIMSQIKAAAGNKEPIHHIKQKGQKNDNCTIANSKSNIEGILLCQKAREVGGFDKLTESDMDSVKKEYKEFTKHMRVEKVNELAKALKENPQDPDLNNLTKEYLKQHPNADPKLKQTLETALKQASESSMTLSQPGKTI
For B2, the binding result is reported as “binds”.
